Data source: PubChem BioAssay AID504761 (Drosophila RNAi Screening Center, 2011)
In all, the deposit lists about 22,000 reagents; below is a random part of those with a known target gene and a result. In the full data, 116 (0.52%) are marked active. 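Calls depend on retest data that are not deposited; infection was ranked per plate without normalising between plates; the unit of the infection score is not given.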 Raw values are not corrected between plates. A number with no mark means an inactive call. A plus sign joins genes that one reagent is predicted to hit. Not stated in the record: the amount of reagent, the time to read-out.

- Purpose: 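Insect host genes that dengue virus relies on to spread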 (primary screen)
- Cell system: D.Mel-2 cells from Drosophila
- Knock-down reagent: long dsRNA against Drosophila genes
- Challenge: infection with dengue virus type 2; dose and infection time not stated
- Measured: 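Cells stained for dengue envelope protein and imaged; percent of infected cells per well on duplicate plates, ranked by infection, with stained nuclei counted for cell number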
- Reading the numbers: infection score: higher = more virus-infected cells; cell count: higher = more cells in the well
- Active means: 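Low infection ranks in the two replicates (chance level up to 0.065) followed by a retest with a 1.5-fold or larger significant decrease, p below 0.05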
- Meaning of the calls: active = confirmed: knock-down lowers infection; inactive = not picked or not confirmed

| target gene | amplicon | infection score, replicate 1 | infection score, replicate 2 | cell count, replicate 1 | cell count, replicate 2 |
| --- | --- | --- | --- | --- | --- |
| CG17597 | DRSC02630 | 19.5 | 10.4 | 6468 | 6232 |
| CG17597 | DRSC24788 | 8.91 | 9.26 | 6093 | 6164 |
| retn (retained) | DRSC04679 | 8.84 | 13.6 | 2421 | 3186 |
| retn (retained) | DRSC27544 | 8.88 | 4.2 | 6319 | 7171 |
| ppk13 (pickpocket 13) | DRSC02382 | 7.27 | 10.4 | 3481 | 4955 |
| RecQ4 (RecQ4 helicase) | DRSC11265 | 1.11 | 1.19 | 5129 | 5134 |
| RecQ4 (RecQ4 helicase) | DRSC27616 | 4.72 | 7.52 | 5674 | 5998 |
| CG9313 | DRSC04540 | 21.5 | 14.9 | 6237 | 6289 |
| CG9313 | DRSC27041 | 11.2 | 7.78 | 6710 | 6337 |
| CG34253 | DRSC09531 | 3.12 | 3.22 | 5479 | 5805 |
| Cog7 (Component of oligomeric golgi complex 7) | DRSC16331 | 7.6 | 3.09 | 5371 | 6515 |
| CG30034 (retired record) | DRSC05288 | 3.14 | 3.3 | 6180 | 5845 |
| Prosalpha7 (Proteasome alpha7 subunit) | DRSC07516 | 0.85 | 4.32 | 945 | 1319 |
| Prosalpha7 (Proteasome alpha7 subunit) | DRSC29365 | 5.12 | 7.27 | 782 | 1321 |
| CG4935 | DRSC01924 | 8.14 | 3.64 | 6041 | 6648 |
| simj (simjang) | DRSC10942 | 7.27 | 5.21 | 6670 | 6735 |
| simj (simjang) | DRSC25345 | 8.52 | 0.61 | 6265 | 6182 |
| CG42565 | DRSC04154 | 18.5 | 11.8 | 4405 | 3434 |
| CG6420 | DRSC16035 | – | – | 346 | 363 |
| Cpr47Eb (Cuticular protein 47Eb) | DRSC06345 | 7.32 | 16.4 | 6350 | 5630 |
| CG15548 | DRSC15086 | 1.29 | 4.91 | 854 | 6950 |
| CG15548 | DRSC26941 | 2.21 | 2.95 | 6192 | 6310 |
| CG44838 | DRSC10371 | 11.7 | 4.7 | 6202 | 6624 |
| CG44838 | DRSC28801 | 16.5 | 8.35 | 5595 | 5973 |
| PyK (Pyruvate kinase) | DRSC16806 | 1.64 | 4.02 | 6538 | 6836 |
| PyK (Pyruvate kinase) | DRSC27033 | 2.79 | 2.73 | 6602 | 6474 |
| CG15408 | DRSC00423 | 3.75 | 7.11 | 6856 | 6452 |
| Ir54a + sub | DRSC06459 | 7 | 3.9 | 6660 | 6951 |
| CG15109 | DRSC06536 | 2.3 | 3.78 | 6228 | 6327 |
| CG15109 | DRSC26040 | 12.2 | 3.13 | 6457 | 6455 |
| lncRNA:CR30009 (long non-coding RNA:CR30009) | DRSC22952 | 1.78 | 1.04 | 6277 | 6735 |
| lncRNA:CR30009 (long non-coding RNA:CR30009) | DRSC29817 | 8.73 | 4.06 | 5879 | 6153 |
| CG15522 | DRSC15059 | 5.5 | 5.67 | 3037 | 6776 |
| CG15522 | DRSC29412 | – | 4.26 | 412 | 1150 |
| CG3168 | DRSC18287 | 3.82 | 3.99 | 864 | 6614 |
| CG3168 | DRSC25481 | 1.75 | 1.75 | 6012 | 5944 |
| Sid (Stress induced DNase) | DRSC16588 | 2.24 | 1.88 | 6245 | 6762 |
| Sid (Stress induced DNase) | DRSC26318 | 21.3 | 7.54 | 5168 | 6126 |
| Dpp10 (Dipeptidyl peptidase 10) | DRSC00942 | 2.36 | 0.81 | 6022 | 5538 |
| Dpp10 (Dipeptidyl peptidase 10) | DRSC02139 | 2.99 | 6.13 | 6147 | 7060 |
| stol (stolid) | DRSC01956 | 3.35 | 3.36 | 6359 | 6493 |
| CG4686 | DRSC15622 | 0.19 | 10.5 | 529 | 5381 |
| CG14154 | DRSC10156 | 0.73 | 1.03 | 6062 | 6135 |
| CG32373 | DRSC08895 | 1.56 | 0.44 | 6008 | 6145 |
| CG15824 | DRSC00473 | 3.77 | 1.56 | 6364 | 6341 |
| CG15824 | DRSC27412 | 2.92 | 18.9 | 6884 | 6542 |
| CG8526 | DRSC16438 | 8.06 | 21.8 | 6450 | 6046 |
| CG8526 | DRSC26422 | 4.57 | 1.68 | 6458 | 6241 |
| CG32354 | DRSC10763 | 2.53 | 2.28 | 6789 | 6745 |
| CG32354 | DRSC10775 | 19.5 | 2.49 | 3545 | 724 |
| CG32354 | DRSC21919 | 2.48 | 2.26 | 6379 | 6383 |
| rec (recombination-defective) | DRSC14998 | 1.15 | 4.35 | 6604 | 6742 |
| rec (recombination-defective) | DRSC15656 | 1.01 | 10.3 | 6143 | 5791 |
| CG6878 | DRSC10737 | 1 | 3.04 | 6393 | 5568 |
| Acp98AB (retired record) | DRSC21837 | 3.35 | 24.4 | 6898 | 5095 |
| CG34164 + RpL7-like | DRSC28314 | 26.3 | 23.8 | 5083 | 4799 |
| Dif (Dorsal-related immunity factor) | DRSC03316 | 12.1 | 7.74 | 5401 | 4691 |
| CG8562 | DRSC10995 | 4.72 | 4.18 | 5905 | 6030 |
| CG8562 | DRSC28778 | 3.05 | 6.73 | 557 | 1397 |

A stretch of the results above, for reference:
| target gene | amplicon | infection score, replicate 1 | infection score, replicate 2 | cell count, replicate 1 | cell count, replicate 2 |
| --- | --- | --- | --- | --- | --- |
| Cog7 (Component of oligomeric golgi complex 7) | DRSC16331 | 7.6 | 3.09 | 5371 | 6515 |
| CG30034 (retired record) | DRSC05288 | 3.14 | 3.3 | 6180 | 5845 |
| Prosalpha7 (Proteasome alpha7 subunit) | DRSC07516 | 0.85 | 4.32 | 945 | 1319 |
| Prosalpha7 (Proteasome alpha7 subunit) | DRSC29365 | 5.12 | 7.27 | 782 | 1321 |
